Results taken from BindingDB's records for 18221310 (Burnham Institute For Medical Research, 2008).

Protein sequences, listed by entry. Tags and fused reporters are not part of them. Residues count along the entry.
UniProt Q45894, 1-425: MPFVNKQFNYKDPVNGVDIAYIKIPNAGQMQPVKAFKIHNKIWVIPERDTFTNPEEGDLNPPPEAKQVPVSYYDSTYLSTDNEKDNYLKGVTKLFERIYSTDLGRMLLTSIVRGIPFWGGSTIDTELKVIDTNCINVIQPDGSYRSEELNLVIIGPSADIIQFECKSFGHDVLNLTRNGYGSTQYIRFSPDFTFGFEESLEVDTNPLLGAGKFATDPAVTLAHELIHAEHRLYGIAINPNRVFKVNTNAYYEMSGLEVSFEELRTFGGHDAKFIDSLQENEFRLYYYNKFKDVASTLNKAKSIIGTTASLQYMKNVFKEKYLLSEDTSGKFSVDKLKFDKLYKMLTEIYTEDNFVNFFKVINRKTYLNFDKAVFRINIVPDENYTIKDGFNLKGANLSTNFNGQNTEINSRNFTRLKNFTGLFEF

What follows are molecules tested against Botulinum neurotoxin type A2 [1-425] (Clostridium botulinum, UniProt Q45894).
With `CC1Cc2cc(-c3nn(-c4ccccc4)cc3/C=C3\SC(=S)N(CCS(=O)(=O)O)C3=O)ccc2O1` (stereo unspecified) the IC50 was > 200 µM. `CCOc1ccc(-c2nn(-c3ccccc3)cc2/C=C2\SC(=S)N(CC(=O)O)C2=O)c(C)c1` was tested, and the IC50 was 130 µM. For `CCOc1ccc(-c2nn(-c3ccccc3)cc2/C=C2\SC(=S)N(CC(=O)O)C2=O)cc1F`, the IC50 was > 200 µM. `COc1ccc(-c2nn(-c3ccccc3)cc2/C=C2\SC(=S)N(CCS(=O)(=O)O)C2=O)cc1` was tested, and the IC50 was > 200 µM. For `O=C(O)C(c1ccccc1)N1C(=O)/C(=C/c2ccc(-c3ccc(Cl)cc3Cl)o2)SC1=S` (stereo unspecified), the IC50 was > 200 µM. In the case of `O=C(O)CN1C(=O)/C(=C/c2cn(-c3ccccc3)nc2-c2ccc(S(=O)(=O)N3CCOCC3)cc2)SC1=S`, the IC50 is reported as > 200 µM. `O=C(O)CN1C(=O)/C(=C/c2cn(-c3ccccc3)nc2-c2cccs2)SC1=S` gave an IC50 of 160 µM. For `O=C(O)CN1C(=O)/C(=C2/C(=O)N(CC(=O)Nc3cccc(Cl)c3)c3ccccc32)SC1=S`, the IC50 was > 200 µM. Molecule `O=C1/C(=C/c2cn(-c3ccccc3)nc2-c2ccc(Cl)cc2)SC(=S)N1CCS(=O)(=O)O` has an IC50 of 26.4 µM. `O=C1/C(=C/c2cn(-c3ccccc3)nc2-c2ccc(OCc3ccc(Cl)cc3)cc2)SC(=S)N1CCS(=O)(=O)O` was tested, and the IC50 was > 200 µM. `O=C1/C(=C/c2cn(-c3ccccc3)nc2-c2ccc(S(=O)(=O)N3CCCCC3)cc2)SC(=S)N1CCS(=O)(=O)O` gave an IC50 of 20.1 µM. `O=C1/C(=C/c2cn(-c3ccccc3)nc2-c2ccc(S(=O)(=O)N3CCOCC3)cc2)SC(=S)N1CCS(=O)(=O)O` showed an IC50 of 85 µM. In the case of `O=C(O)CN1C(=O)C(=Cc2c[nH]nc2-c2ccc(C(F)(F)F)cc2)SC1=S` [2-[(5Z)-4-oxo-2-sulfanylidene-5-({3-[4-(trifluoromethyl)phenyl]-1H-pyrazol-4-yl}methylidene)-1,3-thiazolidin-3-yl]acetic acid], the IC50 is reported as > 200 µM. `O=C(O)CN1C(=O)/C(=C/c2cc3nccnc3s2)SC1=S` [2-[(5Z)-4-oxo-2-sulfanylidene-5-{thieno[2,3-b]pyrazin-6-ylmethylidene}-1,3-thiazolidin-3-yl]acetic acid] was tested, and the IC50 was > 200 µM. `O=C(O)CN1C(=O)/C(=C/c2cc(-c3ccccc3)on2)SC1=S` [2-[(5Z)-4-oxo-5-[(5-phenyl-1,2-oxazol-3-yl)methylidene]-2-sulfanylidene-1,3-thiazolidin-3-yl]acetic acid] was tested, and the IC50 was > 200 µM. In the case of `O=C(O)CN1C(=O)/C(=C/c2cccc(-n3cccn3)c2)SC1=S` [2-[(5Z)-4-oxo-5-{[3-(1H-pyrazol-1-yl)phenyl]methylidene}-2-sulfanylidene-1,3-thiazolidin-3-yl]acetic acid], the IC50 is reported as > 200 µM. In the case of `O=C(O)CN1C(=O)/C(=C/c2cccc(N3CCCC3)c2)SC1=S` [2-[(5Z)-4-oxo-5-{[3-(pyrrolidin-1-yl)phenyl]methylidene}-2-sulfanylidene-1,3-thiazolidin-3-yl]acetic acid], the IC50 is reported as > 200 µM. `O=C(O)CN1C(=O)/C(=C/c2csc3ccccc23)SC1=S` [2-[(5Z)-5-(1-benzothiophen-3-ylmethylidene)-4-oxo-2-sulfanylidene-1,3-thiazolidin-3-yl]acetic acid] was tested, and the IC50 was > 200 µM. For `O=C(O)CN1C(=O)/C(=C/c2c[nH]c3ccccc23)SC1=S` [2-[(5Z)-5-(1H-indol-3-ylmethylidene)-4-oxo-2-sulfanylidene-1,3-thiazolidin-3-yl]acetic acid], the IC50 was > 200 µM. In the case of `O=C(O)CN1C(=O)/C(=C/c2ccc3c(c2)OCO3)SC1=S` [2-[(5Z)-5-(2H-1,3-benzodioxol-5-ylmethylidene)-4-oxo-2-sulfanylidene-1,3-thiazolidin-3-yl]acetic acid], the IC50 is reported as > 200 µM. In the case of `O=C(O)CN1C(=O)/C(=C/c2sc(Br)c3c2OCCO3)SC1=S` [2-[(5Z)-5-({7-bromo-2H,3H-thieno[3,4-b][1,4]dioxin-5-yl}methylidene)-4-oxo-2-sulfanylidene-1,3-thiazolidin-3-yl]acetic acid], the IC50 is reported as > 200 µM. `Cc1nc(/C=C2\SC(=S)N(CC(=O)O)C2=O)c(C)o1` [2-[(5Z)-5-[(2,5-dimethyl-1,3-oxazol-4-yl)methylidene]-4-oxo-2-sulfanylidene-1,3-thiazolidin-3-yl]acetic acid] was tested, and the IC50 was > 200 µM. `Cc1nc(-c2ccccc2)c(/C=C2\SC(=S)N(CC(=O)O)C2=O)s1` [2-[(5Z)-5-[(2-methyl-4-phenyl-1,3-thiazol-5-yl)methylidene]-4-oxo-2-sulfanylidene-1,3-thiazolidin-3-yl]acetic acid] was tested, and the IC50 was > 200 µM. For `Cc1ccc2cc(/C=C3\SC(=S)N(CC(=O)O)C3=O)ccc2n1` [2-[(5Z)-5-[(2-methylquinolin-6-yl)methylidene]-4-oxo-2-sulfanylidene-1,3-thiazolidin-3-yl]acetic acid], the IC50 was > 200 µM. For `O=C(O)CN1C(=O)/C(=C/c2c[nH]c3ccc(Br)cc23)SC1=S` [2-[(5Z)-5-[(5-bromo-1H-indol-3-yl)methylidene]-4-oxo-2-sulfanylidene-1,3-thiazolidin-3-yl]acetic acid], the IC50 was > 200 µM. With `O=C(O)CN1C(=O)/C(=C/c2cccc(Br)n2)SC1=S` [2-[(5Z)-5-[(6-bromopyridin-2-yl)methylidene]-4-oxo-2-sulfanylidene-1,3-thiazolidin-3-yl]acetic acid] the IC50 was > 200 µM. With `O=C(O)CN1C(=O)/C(=C/c2cccc3c2oc2ccccc23)SC1=S` [2-[(5Z)-5-{8-oxatricyclo[7.4.0.0^{2,7}]trideca-1(9),2,4,6,10,12-hexaen-6-ylmethylidene}-4-oxo-2-sulfanylidene-1,3-thiazolidin-3-yl]acetic acid] the IC50 was 160 µM. For `CN1CCCN(c2ccc(/C=C3\SC(=S)N(CC(=O)O)C3=O)cc2)CC1` [2-[(5Z)-5-{[4-(4-methyl-1,4-diazepan-1-yl)phenyl]methylidene}-4-oxo-2-sulfanylidene-1,3-thiazolidin-3-yl]acetic acid], the IC50 was > 50 µM. With `O=C(O)CN1C(=O)/C(=C/c2cc(-c3ccc(Br)cc3)on2)SC1=S` [2-[(5Z)-5-{[5-(4-bromophenyl)-1,2-oxazol-3-yl]methylidene}-4-oxo-2-sulfanylidene-1,3-thiazolidin-3-yl]acetic acid] the IC50 was > 200 µM. Work on `O=C(O)CN1C(=O)/C(=C/c2cc(-c3ccc(Cl)cc3)on2)SC1=S` [2-[(5Z)-5-{[5-(4-chlorophenyl)-1,2-oxazol-3-yl]methylidene}-4-oxo-2-sulfanylidene-1,3-thiazolidin-3-yl]acetic acid] yielded an IC50 of 82.7 µM. In the case of `O=C(O)CN1C(=O)C(=Cc2cc(-c3ccc(Cl)cc3)n[nH]2)SC1=S` [2-[(5Z)-5-{[5-(4-chlorophenyl)-1H-pyrazol-3-yl]methylidene}-4-oxo-2-sulfanylidene-1,3-thiazolidin-3-yl]acetic acid], the IC50 is reported as > 200 µM. For `O=C1/C(=C/c2ccc(-c3ccc(Cl)cc3)o2)SC(=S)N1CCS(=O)(=O)O` [2-[(5Z)-5-{[5-(4-chlorophenyl)furan-2-yl]methylidene}-4-oxo-2-sulfanylidene-1,3-thiazolidin-3-yl]ethane-1-sulfonic acid], the IC50 was > 200 µM. `O=C(O)CN1C(=O)/C(=C/c2cc(-c3ccc(F)cc3)on2)SC1=S` [2-[(5Z)-5-{[5-(4-fluorophenyl)-1,2-oxazol-3-yl]methylidene}-4-oxo-2-sulfanylidene-1,3-thiazolidin-3-yl]acetic acid] was tested, and the IC50 was > 200 µM. `COc1ccc(-c2cc(/C=C3\SC(=S)N(CC(=O)O)C3=O)no2)cc1` [2-[(5Z)-5-{[5-(4-methoxyphenyl)-1,2-oxazol-3-yl]methylidene}-4-oxo-2-sulfanylidene-1,3-thiazolidin-3-yl]acetic acid] showed an IC50 of 194 µM. `Cc1ccc(-c2cc(/C=C3\SC(=S)N(CC(=O)O)C3=O)no2)cc1` [2-[(5Z)-5-{[5-(4-methylphenyl)-1,2-oxazol-3-yl]methylidene}-4-oxo-2-sulfanylidene-1,3-thiazolidin-3-yl]acetic acid] was tested, and the IC50 was 130 µM. For `O=C(O)CN1C(=O)/C(=C/c2cc(-c3ccco3)on2)SC1=S` [2-[(5Z)-5-{[5-(furan-2-yl)-1,2-oxazol-3-yl]methylidene}-4-oxo-2-sulfanylidene-1,3-thiazolidin-3-yl]acetic acid], the IC50 was > 200 µM. With `O=C1/C(=C/c2cn(-c3ccccc3)nc2-c2ccccc2)SC(=S)N1C1CCS(=O)(=O)C1` (stereo unspecified) [3-[(5Z)-5-[(1,3-diphenyl-1H-pyrazol-4-yl)methylidene]-4-oxo-2-sulfanylidene-1,3-thiazolidin-3-yl]--thiolane-1,1-dione] the IC50 was > 200 µM. `O=C1/C(=C/c2cn(-c3ccccc3)nc2-c2ccc(Cl)cc2)SC(=S)N1C1CCS(=O)(=O)C1` (stereo unspecified) [3-[(5Z)-5-{[3-(4-chlorophenyl)-1-phenyl-1H-pyrazol-4-yl]methylidene}-4-oxo-2-sulfanylidene-1,3-thiazolidin-3-yl]--thiolane-1,1-dione] was tested, and the IC50 was > 200 µM. For `O=C1/C(=C/c2ccc(-c3cccc(Cl)c3Cl)o2)SC(=S)N1C1CCS(=O)(=O)C1` (stereo unspecified) [3-[(5Z)-5-{[5-(2,3-dichlorophenyl)furan-2-yl]methylidene}-4-oxo-2-sulfanylidene-1,3-thiazolidin-3-yl]--thiolane-1,1-dione], the IC50 was > 200 µM. With `O=C1/C(=C/c2ccc(-c3ccc(Cl)cc3Cl)o2)SC(=S)N1C1CCS(=O)(=O)C1` (stereo unspecified) [3-[(5Z)-5-{[5-(2,4-dichlorophenyl)furan-2-yl]methylidene}-4-oxo-2-sulfanylidene-1,3-thiazolidin-3-yl]--thiolane-1,1-dione] the IC50 was > 100 µM. `O=C1/C(=C/c2ccc(-c3cc(Cl)ccc3Cl)o2)SC(=S)N1CC1CCCO1` (stereo unspecified) [(5Z)-5-{[5-(2,5-dichlorophenyl)furan-2-yl]methylidene}-3-(oxolan-2-ylmethyl)-2-sulfanylidene-1,3-thiazolidin-4-one] was tested, and the IC50 was > 50 µM.
